Molecules are shown by their SMILES.

This data set has as its system HIV WT transcript with 1083 nucleotides. In words: Functionalisation, capture, cleaving and elution of HIV WT transcripts (BioAnalyzer).

On to `Cn1c(=O)oc(=O)c2cc(NC(=O)CCSSCCNC(=O)CCOCCOCCOCCOCCNC(=O)CCCCC3SCC4NC(=O)NC43)ccc21` (stereo not drawn) [5Biot PEG4 SS IA Me 24], for which the “Concentration of functionalised/captured and eluted transcript” value reads like this: (Exp #2, 15 mM) 7.6E+10 copies/μl; (Exp #3, 30 mM) 1.4E+11 copies/μl; (Exp #4, 120 mM) 1.0E+11 copies/μl; (Exp #5, 180 mM) 9.8E+10 copies/μl. The “Total yield functionalisation/capture/elution of the HIV transcripts” value came to 9.303% (Exp #2, 15 mM); 17.14% (Exp #3, 30 mM); 12.49% (Exp #4, 120 mM); 12% (Exp #5, 180 mM). Besides, the “% RNA recovered after elimination of the excess of reagent 24” value (shortened to “% RNA recovered after elimination”) (Exp #2, Cf 15 mM) was found to be 32%; the “% RNA recovered after elimination” value (Exp #3, Cf 30 mM) amounted to 34%; the “% RNA recovered after elimination” value (Exp #4, Cf 120 mM) was 31%; the “% RNA recovered after elimination” value (Exp #5, Cf 180 mM) was determined as 30%. For the same compound, the Capture rate runs as follows: (Exp #2, Cf 15 mM) 77%; (Exp #3, Cf 30 mM) 100%; (Exp #4, Cf 120 mM) 100%; (Exp #5, Cf 180 mM) 100%. In addition, the elution rate reads like this: (Exp #2, Cf 15 mM) 40%; (Exp #3, Cf 30 mM) 53%; (Exp #4, Cf 120 mM) 45%; (Exp #5, Cf 180 mM) 43%. Further, the overall yield reads like this: (Exp #2, Cf 15 mM) 10%; (Exp #3, Cf 30 mM) 18%; (Exp #4, Cf 120 mM) 14%; (Exp #5, Cf 180 mM) 13%.

The values are drawn from patent US20130253179A1, “Functionalization Processes and Reactants Used in Such Processes Using an Isatoic Anhydride or a Derivative Thereof, Biological Molecules Thus Treated and Kits” (priority 2010, published 2013).
